Values from PubChem BioAssay AID624099 (ICCB-Longwood, 2012)
Assay: 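Human genes that papillomavirus E2 requires to repress the HPV18 LCR promoter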 (primary screen). Cells: human C33A cervical carcinoma cells (HPV-negative) stably expressing BPV1 E2 and an HPV18 LCR luciferase reporter. Reagent: siRNA pool against human genes, 40 nM. Time to read-out: 72 h. Read-out: 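Per-well luciferase luminescence, z-scored on each plate against the plate mean and SD with control wells left out, then averaged across three replicate plates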. Direction: mean z-score and z-score: higher = stronger reporter signal, weaker E2 silencing. Call rule: 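Hit if mean z-score reaches 2 and two or more of three replicate z-scores also reach 2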.
The deposit covers about 21,000 reagents; shown is a random part of them. 497 of them (2.4%) were called active. 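Higher z means weaker E2 silencing; only reporter increases were scored, and knock-downs that hurt cell survival may mask genuine repressor factors.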 Unmarked entries are inactive. The numbers tell different reagents against one gene apart.

gene	reagent no.	mean z-score	z-score, replicate A	z-score, replicate B	z-score, replicate C
MICU3 (GeneID 286097)	1	-0.4	-0.33	-0.27	-0.61
HNRNPAB (GeneID 3182)	1	0.11	0.27	-0.05	0.09
SLC52A2 (GeneID 79581)	1	0.07	0.15	-0.25	0.31
CENPBD1P (GeneID 92806)	1	0.71	0.77	0.92	0.46
NOVA2 (GeneID 4858)	1	0.21	0.34	0.4	-0.13
MAPDA (GeneID 161823)	1	0.66	0.78	0.59	0.6
MS4A4A (GeneID 51338)	1	1.2	1.8	1.06	0.73
FCHO1 (GeneID 23149)	1	-0.62	-0.78	-0.62	-0.45
ARPC1A (GeneID 10552)	1	-1.32	-1.41	-1.27	-1.28
FAM131C (GeneID 348487)	1	0.72	0.79	0.96	0.4
STK4 (GeneID 6789)	1	0.65	0.93	0.91	0.12
CHIT1 (GeneID 1118)	1	-0.89	-0.56	-1.17	-0.94
INPP5J (GeneID 27124)	1	1.46	1.53	1.55	1.31
TVP23B (GeneID 51030)	1	-0.29	-0.38	0.02	-0.5
INA (GeneID 9118)	1	0.17	0.19	0.18	0.15
CLEC11A (GeneID 6320)	1	0.61	0.53	0.58	0.74
ALKBH8 (GeneID 91801)	1	0	0.34	0.09	-0.42
FAR1 (GeneID 84188)	1	-0.97	-1.24	-0.86	-0.81
COL23A1 (GeneID 91522)	1	-0.68	-0.41	-0.8	-0.83
LRCH4 (GeneID 4034)	1	1.32	1.48	1.34	1.13
TAF15 (GeneID 8148)	1	0.17	0.24	0.25	0.02
RILPL1 (GeneID 353116)	1	-0.16	-0.55	0.06	0
POFUT1 (GeneID 23509)	1	-0.77	-0.76	-0.86	-0.69
ELOVL4 (GeneID 6785)	1	-0.69	-0.93	-0.66	-0.49
MED23 (GeneID 9439)	1	1.93	2.16	1.88	1.74
ZBTB17 (GeneID 7709)	1	0.1	0.14	0.2	-0.03
CACNA2D2 (GeneID 9254)	1	0.1	0.07	0.28	-0.05
LOC389390 (retired record) (GeneID 389390)	1	0.11	-0.02	0.18	0.16
AXIN1 (GeneID 8312)	1	0.4	0.32	0.32	0.58
GLB1 (GeneID 2720)	1	-0.21	-0.17	-0.06	-0.39
IFT54 (GeneID 26146)	1	-1.42	-1.6	-1.48	-1.18
LOC389447 (retired record) (GeneID 389447)	1	0.81	0.94	0.63	0.86
PHPT1 (GeneID 29085)	1	0.62	0.95	0.25	0.67
LINC02072 (GeneID 440446)	1	0.44	0.86	0.6	-0.15
CARD10 (GeneID 29775)	1	-1.22	-1.03	-1.57	-1.07
SLC16A9 (GeneID 220963)	1	0.12	0.21	0.2	-0.05
NUTM2E (GeneID 283008)	1	0.53	1.89	-0.45	0.15
AVEN (GeneID 57099)	1	-0.77	-0.9	-0.61	-0.8
ARGLU1-DT (GeneID 283483)	1	-0.95	-0.69	-0.98	-1.19
TMEM192 (GeneID 201931)	1	-0.17	-0.28	-0.03	-0.18
SKIC2 (GeneID 6499)	1	0.07	0.06	-0.08	0.24
LOXL1 (GeneID 4016)	1	-0.88	-1.09	-0.64	-0.91
HSPA8 (GeneID 3312)	1	0.51	0.75	0.13	0.64
PTGR3 (GeneID 284273)	1	-0.19	-0.16	-0.07	-0.34
CSPP1 (GeneID 79848)	1	-0.33	0.1	-0.16	-0.94
SLC26A6 (GeneID 65010)	1	-0.37	-0.62	-0.32	-0.18
AREL1 (GeneID 9870)	1	-0.56	-0.51	-0.54	-0.63
BIN3 (GeneID 55909)	1	-1.31	-1.45	-1.44	-1.04
HOXD9 (GeneID 3235)	1	-0.39	-0.28	-0.11	-0.77
PPIA (GeneID 5478)	1	-0.45	-0.44	-0.4	-0.51
BMP2K (GeneID 55589)	1	-0.5	-0.35	-0.57	-0.57
FLAD1 (GeneID 80308)	1	0.44	0.22	0.41	0.7
FSIP2 (GeneID 401024)	1	0.03	0.1	0.17	-0.18
FSIP2 (GeneID 401024)	2	0.06	0.04	0.01	0.12
MYADML (GeneID 151325)	1	1.01	0.8	0.94	1.28
LOC388189 (retired record) (GeneID 388189)	1	-0.62	-0.64	-0.85	-0.36
ZNF229 (GeneID 7772)	1	-0.4	-0.33	-0.6	-0.28
PHAX (GeneID 51808)	1	-0.03	0.22	-0.08	-0.23
LOC402525 (retired record) (GeneID 402525)	1	-0.24	-0.22	0.04	-0.54
SCIN (GeneID 85477)	1	0.3	0.37	0.12	0.41
CHSY1 (GeneID 22856)	1	0.4	0.62	0.13	0.45
KIF1A (GeneID 547)	1	-0.52	-0.45	-0.66	-0.46
HNRNPK (GeneID 3190)	1	-2.55	-2.53	-2.66	-2.47
GPR165P (GeneID 392486)	1	0.9	1.39	0.5	0.8
DEFA3 (GeneID 1668)	1	4.03 (active)	4.2	3.58	4.3
LOC340089 (GeneID 340089)	1	4.17 (active)	3.68	4.06	4.76
DNAAF1 (GeneID 123872)	1	1.25	1.25	0.87	1.63
ABCG8 (GeneID 64241)	1	1.15	1.04	1.23	1.19
PARP15 (GeneID 165631)	1	-0.39	-0.52	-0.55	-0.1
MBLAC2 (GeneID 153364)	1	-0.75	-0.75	-0.95	-0.55
KLHDC2 (GeneID 23588)	1	-0.21	-0.28	-0.29	-0.06
VSX1 (GeneID 30813)	1	0.4	0.59	0.14	0.46
MORC2-AS1 (GeneID 150291)	1	-0.13	0.01	0	-0.39

Targets above whose target name begins with S or s (6):
gene	reagent no.	mean z-score	z-score, replicate A	z-score, replicate B	z-score, replicate C
SLC52A2 (GeneID 79581)	1	0.07	0.15	-0.25	0.31
STK4 (GeneID 6789)	1	0.65	0.93	0.91	0.12
SLC16A9 (GeneID 220963)	1	0.12	0.21	0.2	-0.05
SKIC2 (GeneID 6499)	1	0.07	0.06	-0.08	0.24
SLC26A6 (GeneID 65010)	1	-0.37	-0.62	-0.32	-0.18
SCIN (GeneID 85477)	1	0.3	0.37	0.12	0.41
